Drawing on US20220033460A1 (published 2022), this text covers IC50 for 1 molecule.

The test concerns the target DRB1*07:01. In words: competitive fluorescence polarization.

In turn, FNFNGLTGTVLTES [FNFNGLTGTVLTES (position 541)] had an IC50 of 6.08 µM.
